Assay results taken from article PMC7949159, “Optimized binding of substituted quinoline ALLINIs within the HIV-1 integrase oligomer” (The Journal of Biological Chemistry, 2021).

Assays:
[1] = target: HIV-1 IN (full-length, His-tagged and FLAG-tagged) (Human immunodeficiency virus type 1 group M subtype B, UniProt P12497); assay: HTRF-based IN multimerization assay; details: read-out: In vitro IN multimerization EC50, average with SD of three independent experiments
Method: For biochemical studies, recombinant proteins 6xHis-tagged and FLAG-tagged full-length INs were expressed in E. coli and purified by column chromatography as previously described ([39]). The HTRF-based assay used to monitor inhibitor-induced aberrant multimerization of IN was performed as previously reported ([15], [19]). Briefly, two separate preparations of His-tagged and FLAG-tagged IN proteins were mixed in presence of increasing concentration of the test compounds and incubated for 2.5 h at room temperature. Anti-His6-XL665 and anti-FLAG-EuCryptate antibodies (Cisbio, Inc) were then added to the reaction and incubated at room temperature for 3 h. The IN multimerization HTRF signal was recorded using a PerkinElmer EnSpire multimode plate reader, and dose–response curves were fitted with a sigmoidal dose–response equation with Hill slope to determine the compound EC50 using Origin software (v9.7).

noninfected cells = assay: CyQUANT XTT Cell Viability cytotoxicity assay
Method: The EC50 values were determined in single replication cycle as described previously ([17]). Briefly, HEK293T cells were transfected with pNL4-3.Luc.Env- and pHEF-VSV-G plasmids to produce respective viruses in the absence or presence of indicated concentrations of ALLINIs. The virus supernatants were collected 24 h after drug treatment, and p24 concentrations were determined by HIV-1 Gag p24 ELISA (ZeptoMetrix) following manufacturer’s protocol. The target cells were then infected with HIV-1 virions equivalent to 4 ng of HIV-1 p24, in the absence or presence of indicated concentrations of drugs. To measure EC50 values during the early replication stage, DMSO or the inhibitor was added to the target cells 60 min before infection. The cells were cultured for 48 h, and the cell extracts were prepared using reporter lysis buffer (Promega). Luciferase activity was determined using a commercially available kit (Promega). The cytotoxicity assays were performed on noninfected cells using the commercially available CyQUANT XTT Cell Viability Assay (Invitrogen, Inc) by following the manufacturer protocol. The dose–response curves were fitted with a sigmoidal dose–response equation with Hill slope to determine the compound IC50 and CC50 using Origin software (v9.7).

Row | SMILES | EC50 [1] | CC50 (noninfected cells)
1 | CCOc1ccccc1-c1ccc2c(-c3ccc4c(c3)OCCO4)c(C(OC(C)(C)C)C(=O)O)c(C)nc2c1 (racemic) | 60 nM | –
2 | COc1ccc(-c2ccc3c(-c4ccc5c(c4)OCCO5)c(C(OC(C)(C)C)C(=O)O)c(C)nc3c2)cc1 (racemic) | 40 nM | –
3 | COc1cccc(-c2ccc3c(-c4ccc5c(c4)OCCO5)c(C(OC(C)(C)C)C(=O)O)c(C)nc3c2)c1 (racemic) | 520 nM | –
4 | Cc1ccccc1-c1ccc2c(-c3ccc4c(c3)OCCO4)c(C(OC(C)(C)C)C(=O)O)c(C)nc2c1 (racemic) | 60 nM | –
5 | Cc1nc2cc(-c3ccccc3)ccc2c(-c2ccc3c(c2)OCCO3)c1C(OC(C)(C)C)C(=O)O (racemic) | 70 nM | > 100 µM
6 | Cc1nc2cc(-c3ccccc3C(F)(F)F)ccc2c(-c2ccc3c(c2)OCCO3)c1C(OC(C)(C)C)C(=O)O (racemic) | 140 nM | –
7 | Cc1nc2cc(-c3ccccc3Cl)ccc2c(-c2ccc3c(c2)OCCO3)c1C(OC(C)(C)C)C(=O)O (racemic) | 110 nM | –
8 | Cc1nc2cc(-c3ccccc3OC(F)(F)F)ccc2c(-c2ccc3c(c2)OCCO3)c1C(OC(C)(C)C)C(=O)O (racemic) | 120 nM | –
